According to publication PMC8348142, “Antimicrobial Peptide Modifications against Clinically Isolated Antibiotic-Resistant Salmonella” (Molecules, 2021):
Values joined by “and” are separate entries in the source; they are usually repeats but may differ in a detail not shown here. Identical values can stand only once. Ends that are not written are not given here.

Tested on: Salmonella versus sRBCs
Experiment: Selectivity index (HC50/GMMIC)
Conditions: HC50 (sRBCs) / GMMIC (12 Salmonella isolates)

Substance: FFFIRRIARLLRRIF-NH2 [2F-Kn2-5R-NH2]
- SI (selectivity index): 1 and 0.99
